In ChEMBL document CHEMBL5104150, “Synthesis and activity evaluation of selenazole-coupled CPI-1 irreversible bifunctional inhibitors for botulinum toxin A light chain” (2022) one finds IC50 data, which are given here for 15 molecules.

Chains of the proteins cited; added tags and fusions are not shown. Residues count along the entry.
UniProt P0DPI0, 2-448 limits assumed: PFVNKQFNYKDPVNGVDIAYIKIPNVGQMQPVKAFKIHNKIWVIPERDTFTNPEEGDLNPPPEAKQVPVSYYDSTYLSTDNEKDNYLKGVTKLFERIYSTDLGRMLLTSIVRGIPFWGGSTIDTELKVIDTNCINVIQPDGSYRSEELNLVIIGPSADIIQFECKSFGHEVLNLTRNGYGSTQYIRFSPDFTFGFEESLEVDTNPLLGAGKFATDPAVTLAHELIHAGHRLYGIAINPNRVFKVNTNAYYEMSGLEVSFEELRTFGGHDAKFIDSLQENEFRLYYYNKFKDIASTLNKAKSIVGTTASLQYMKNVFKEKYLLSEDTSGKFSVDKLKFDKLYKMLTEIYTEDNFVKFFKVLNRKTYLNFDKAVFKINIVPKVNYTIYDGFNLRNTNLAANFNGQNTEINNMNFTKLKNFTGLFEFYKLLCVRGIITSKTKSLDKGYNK

pIC50: −log10 of the molar value.

One test concerns the target T1, Botulinum neurotoxin type A (Clostridium botulinum, UniProt P0DPI0). In words: Inhibition of Clostridium botulinum BoNT/A light chain (1 to 424 residues) using SNAPtide as substrate by FRET assay.
Usually pIC50 stands for −log10 of the IC50, conventionally taken in molar units. A higher pIC50 goes with a small IC50. `CC(C)C[C@H](NC(=O)[C@@H]1CSSC[C@H](N)C(=O)N[C@@H](CCN)C(=O)N[C@@H](CCCNC(=N)N)C(=O)N[C@@H](Cc2c[nH]c3ccccc23)C(=O)N[C@@H]([C@@H](C)O)C(=O)N[C@@H](CCCCN)C(=O)N1)C(=O)NCCNC(=O)Cc1ccc(-n2[se]c3ccccc3c2=O)cc1` showed a pIC50 of 6.30.
`CC(C)C[C@H](NC(=O)[C@@H]1CSSC[C@H](NC(=O)Cc2ccc(-n3[se]c4ccccc4c3=O)cc2)C(=O)N[C@@H](CCN)C(=O)N[C@@H](CCCNC(=N)N)C(=O)N[C@@H](Cc2c[nH]c3ccccc23)C(=O)N[C@@H]([C@@H](C)O)C(=O)N[C@@H](CCCCN)C(=O)N1)C(=O)O` showed a negative-log IC50 (pIC50) of 5.65.
Still for that read-out and setting: under `CC(C)C[C@H](NC(=O)[C@@H]1CSSC[C@H](NC(=O)CCCCCn2[se]c3ccccc3c2=O)C(=O)N[C@@H](CCN)C(=O)N[C@@H](CCCNC(=N)N)C(=O)N[C@@H](Cc2c[nH]c3ccccc23)C(=O)N[C@@H]([C@@H](C)O)C(=O)N[C@@H](CCCCN)C(=O)N1)C(=O)O` stands 5.92.
Still for that read-out and setting: the same measure for `CC(C)C[C@H](NC(=O)[C@@H]1CSSC[C@H](NC(=O)CCc2ccc(-n3[se]c4ccccc4c3=O)cc2)C(=O)N[C@@H](CCN)C(=O)N[C@@H](CCCNC(=N)N)C(=O)N[C@@H](Cc2c[nH]c3ccccc23)C(=O)N[C@@H]([C@@H](C)O)C(=O)N[C@@H](CCCCN)C(=O)N1)C(=O)O`: 5.68; for `NCCNC(=O)Cc1ccc(-n2[se]c3ccccc3c2=O)cc1`: below 4.00; for `CC(C)C[C@H](NC(=O)[C@@H]1CSSC[C@H](NC(=O)CNC(=O)CCc2ccc(-n3[se]c4ccccc4c3=O)cc2)C(=O)N[C@@H](CCN)C(=O)N[C@@H](CCCNC(=N)N)C(=O)N[C@@H](Cc2c[nH]c3ccccc23)C(=O)N[C@@H]([C@@H](C)O)C(=O)N[C@@H](CCCCN)C(=O)N1)C(=O)O`: 5.38.
On the same count and under the same terms, the same measure for `CC(C)C[C@H](NC(=O)[C@@H]1CSSC[C@H](NC(=O)CNC(=O)CNC(=O)CCc2ccc(-n3[se]c4ccccc4c3=O)cc2)C(=O)N[C@@H](CCN)C(=O)N[C@@H](CCCNC(=N)N)C(=O)N[C@@H](Cc2c[nH]c3ccccc23)C(=O)N[C@@H]([C@@H](C)O)C(=O)N[C@@H](CCCCN)C(=O)N1)C(=O)O`: 5.75; for `CC(C)C[C@H](NC(=O)[C@@H]1CSSC[C@H](NC(=O)c2ccc(-n3[se]c4ccccc4c3=O)cc2)C(=O)N[C@@H](CCN)C(=N)N[C@@H](CCCNC(=N)N)C(=O)N[C@@H](Cc2c[nH]c3ccccc23)C(=O)N[C@@H]([C@@H](C)O)C(=O)N[C@@H](CCCCN)C(=O)N1)C(=O)O`: 5.53.
`CC(C)C[C@H](NC(=O)[C@@H]1CSSC[C@H](N)C(=O)N[C@@H](CCN)C(=O)N[C@@H](CCCNC(=N)N)C(=O)N[C@@H](Cc2c[nH]c3ccccc23)C(=O)N[C@@H]([C@@H](C)O)C(=O)N[C@@H](CCCCN)C(=O)N1)C(N)=O` had a pIC50 of 6.57.
As for `CC(C)C[C@H](NC(=O)[C@@H]1CSSC[C@H](NC(=O)CCCn2[se]c3ccccc3c2=O)C(=O)N[C@@H](CCN)C(=O)N[C@@H](CCCNC(=N)N)C(=O)N[C@@H](Cc2c[nH]c3ccccc23)C(=O)N[C@@H]([C@@H](C)O)C(=O)N[C@@H](CCCCN)C(=O)N1)C(=O)O`, the pIC50 was 5.93.

The target in a further test is T1, Botulinum neurotoxin type A. In words: Inhibition of Clostridium botulinum BoNT/A light chain.
`O=C(O)Cc1ccc(-n2[se]c3ccccc3c2=O)cc1` showed a pIC50 of 6.09.
On the same count and under the same terms, under `O=C(O)CCc1ccc(-n2[se]c3ccccc3c2=O)cc1` stands 6.38; under `O=C(O)CCCCCn1[se]c2ccccc2c1=O`, 5.29.
In turn, `O=C(O)CCCc1ccc(C2[Se]c3ccccc3C2=O)cc1` (stereo not given) had a pIC50 of 5.28.
Still for that read-out and setting: the same measure for `O=C(O)CCCn1[se]c2ccccc2c1=O`: 5.17.
